In patent US20070249637A1, “Inhibitors Of Hepatitis C Virus Protease, And Compositions And Treatments Using The Same” (priority 2004, published 2007):

System: HCV dual reporter subgenomic replicon (B6b cell line)
Assay: HCV dual reporter subgenomic replicon assay, Renilla luciferase (antiviral activity)
Format: cell-based, Hepatitis C virus
Details: therapeutic index = CC50 divided by EC50
Procedure: The compounds described herein were tested for antiviral activity utilizing a dual-reporter replicon assay as described in U.S. patent application Ser. No. 10/818,075 (the '075 application), filed Apr. 5, 2004. The disclosure of the '075 application is incorporated herein.
Cell-based antiviral activity was evaluated in the previously described HCV dual reporter subgenomic replicon system (the '075 application). With this system, the effects of a compound on both HCV replication and cell viability can be simultaneously determined by measuring the intracellular levels of two separate reporter proteins. The dicistronic selectable replicon contains the Renilla luciferase gene such that Renilla luciferase activity within stably-transfected cells serves as a marker of HCV replication. The firefly luciferase gene is stably integrated into and expressed by the Huh-7 host cells. Since firefly luciferase activity is dependent upon cellular transcription and translation, firefly luciferase activity serves as an indicator of cell viability.
The dual reporter selectable replicon cell line (B6b) was maintained in DMEM supplemented with 10% FBS, L-glutamine, non-essential amino acids, penicillin, streptomycin, and selection agents (200 ug/ml G418 and 6 ug/ml blastocidin). On the first day of the experiment, cells were trypsinized, washed, and diluted in medium lacking the selection agents. Cells were transferred to 96-well, black-walled, clear bottom plates at a density of 2×10^4 cells in 150 ul of medium per well. Cells were allowed to settle for 60 to 90 minutes while compounds were being prepared. Each compound was initially diluted to a 4× working stock (2.56% DMSO in tissue culture medium) that was then serially diluted nine times in half log increments in medium with 2.56% DMSO. Fifty microliters of each dilution were then added in triplicate to the plated cells in order to obtain final IX compound concentrations with 0.64% DMSO. Typical testing concentrations ranged from 320 uM to 10 nM. Control wells containing 0.64% DMSO without compound were also included on each plate.
After 3 days of incubation under humidity at 37° C. with 5% CO2, plates were microscopically examined for compound precipitation and cell death. Tissue culture medium was then aspirated and cells were lysed with 20 ul of 1× Passive Lysis Buffer (Promega, Madison, Wis.). Reporter activity was measured using a MicroBeta Jet 1450 (Perkin Elmer, Boston, Mass.) following sequential 50 ul additions of firefly and Renilla luciferase substrates as described in the manufacturers protocol (Promega). Luciferase activities were expressed as a percentage of the signals observed in the compound-free control wells. The amount of compound required to reduce Renilla luciferase expression by 50% is defined as the 50% effective concentration, or EC50. The amount of compound that reduces firefly luciferase expression by 50% is defined as the 50% cytotoxic concentration, or CC50. A therapeutic index (TI) is calculated by dividing the CC50 by the EC50.

SMILES	Replicon TI
Cc1cc(-c2nc(O[C@@H]3C[C@H]4C(=O)N[C@]5(C(=O)O)C[C@H]5/C=C\CCCCC[C@H](NC(=O)OC5CCC5)C(=O)N4C3)c3sccc3n2)n(C)n1 [Example 60, (2R,6S,12Z,13aS,14aR,16aS)-6-{[(Cyclobutyloxy)carbonyl]amino}-2-{[2-(1,3-dimethyl-1H-pyrazol-5-yl)thieno[3,2-d]pyrimidin-4-yl]oxy}-5,16-dioxo-1,2,3,6,7,8,9,10,11,13a,14,15,16,16a-tetradecahydrocyclopropa[e]pyrrolo[1,2-a][1,4]diazacyclopentadecine-14a(5H)-carboxylic acid]	320
Cc1cc(-c2nc(O[C@@H]3C[C@H]4C(=O)N[C@]5(C(=O)O)C[C@H]5/C=C\CCCCC[C@H](NC(=O)OC(C)(C)C)C(=O)N4C3)c3sccc3n2)n(C)n1 [Example 61, (2R,6S,12Z,13aS,14aR,16aS)-6-[(Tert-butoxycarbonyl)amino]-2-{[2-(1,3-dimethyl-1H-pyrazol-5-yl)thieno[3,2-d]pyrimidin-4-yl]oxy}-5,16-dioxo-1,2,3,6,7,8,9,10,11,13a,14,15,16,16a-tetradecahydrocyclopropa[e]pyrrolo[1,2-a][1,4]diazacyclopentadecine-14a(5H)-carboxylic acid]	280
Cc1cc(-c2nc(O[C@@H]3C[C@H]4C(=O)N[C@]5(C(=O)O)C[C@H]5/C=C\CCCCC[C@H](NC(=O)CC5CC5)C(=O)N4C3)c3sccc3n2)n(C)n1 [Example 63, (2R,6S,12Z,13aS,14aR,16aS)-6-[(cyclopropylacetyl)amino]-2-{[2-(1,3-dimethyl-1H-pyrazol-5-yl)thieno[3,2-d]pyrimidin-4-yl]oxy}-5,16-dioxo-1,2,3,6,7,8,9,10,11,13a,14,15,16,16a-tetradecahydrocyclopropa[e]pyrrolo[1,2-a][1,4]diazacyclopentadecine-14a(5H)-carboxylic acid]	>29000
Cc1cc(-c2nc(O[C@@H]3C[C@H]4C(=O)N[C@]5(C(=O)O)C[C@H]5/C=C\CCCCC[C@H](NC(=O)O[C@H]5CCOC5)C(=O)N4C3)c3sccc3n2)n(C)n1 [Example 65, (2R,6S,12Z,13aS,14aR,16aS)-2-{[2-(1,3-Dimethyl-1H-pyrazol-5-yl)thieno[3,2-d]pyrimidin-4-yl]oxy}-5,16-dioxo-6-({[(3S)-tetrahydrofuran-3-yloxy]carbonyl}amino)-1,2,3,6,7,8,9,10,11,13a,14,15,16,16a-tetradecahydrocyclopropa[e]pyrrolo[1,2-a][1,4]diazacyclopentadecine-14a(5H)-carboxylic acid]	>120
CC(C)Nc1cccc(-c2nc(O[C@@H]3C[C@H]4C(=O)N[C@]5(C(=O)O)C[C@H]5/C=C\CCCCC[C@H](NC(=O)OC(C)(C)C)C(=O)N4C3)c3sccc3n2)n1 [Example 79, (2R,6S,12Z,13aS,14aR,16aS)-6-[(Tert-butoxycarbonyl)amino]-2-({2-[6-(isopropylamino)pyridin-2-yl]thieno[3,2-d]pyrimidin-4-yl}oxy)-5,16-dioxo-1,2,3,6,7,8,9,10,11,13a,14,15,16,16a-tetradecahydrocyclopropa[e]pyrrolo[1,2-a][1,4]diazacyclopentadecine-14a(5H)-carboxylic acid]	1200
Cn1ccnc1-c1cc2nccc(O[C@@H]3C[C@H]4C(=O)N[C@]5(C(=O)O)C[C@H]5/C=C\CCCCC[C@H](NC(=O)OC(C)(C)C)C(=O)N4C3)c2s1 [Example 86, (2R,6S,12Z,13aS,14aR,16aS)-6-[(tert-butoxycarbonyl)amino]-2-{[2-(1-methyl-1H-imidazol-2-yl)thieno[3,2-b]pyridin-7-yl]oxy}-5,16-dioxo-1,2,3,6,7,8,9,10,11,13a,14,15,16,16a-tetradecahydrocyclopropa[e]pyrrolo[1,2-a][1,4]diazacyclopentadecine-14a(5H)-carboxylic acid]	>21
Cn1ccnc1-c1cc2nccc(O[C@@H]3C[C@H]4C(=O)N[C@]5(C(=O)O)C[C@H]5/C=C\CCCCC[C@H](NC(=O)OC5CCCC5)C(=O)N4C3)c2s1 [Example 89, (2R,6S,12Z,13aS,14aR,16aS)-6-{[(Cyclopentyloxy)carbonyl]amino}-2-{[2-(1-methyl-1H-imidazol-2-yl)thieno[3,2-b]pyridin-7-yl]oxy}-5,16-dioxo-1,2,3,6,7,8,9,10,11,13a,14,15,16,16a-tetradecahydrocyclopropa[e]pyrrolo[1,2-a][1,4]diazacyclopentadecine-14a(5H)-carboxylic acid]	>640
Cn1ccnc1-c1cc2nccc(O[C@@H]3C[C@H]4C(=O)N[C@]5(C(=O)O)C[C@H]5/C=C\CCCCC[C@H](NC(=O)CC5CC5)C(=O)N4C3)c2s1 [Example 91, (2R,6S,12Z,13aS,14aR,16aS)-6-[(Cyclopropylacetyl)amino]-2-{[2-(1-methyl-1H-imidazol-2-yl)thieno[3,2-b]pyridin-7-yl]oxy}-5,16-dioxo-1,2,3,6,7,8,9,10,11,13a,14,15,16,16a-tetradecahydrocyclopropa[e]pyrrolo[1,2-a][1,4]diazacyclopentadecine-14a(5H)-carboxylic acid]	>1100
